Source: patent US20180016324A1, “Anti-Zika Virus Antibodies and Methods of Use” (Regeneron, published 2018)
Substitutions are numbered along the chain they refer to.

B1: H4H25598P (antibody, V domains shown)
VH: EVQLVESGGGLVQPGGSLRLSCAASGFTVSSNYMSWVRQAPGSGLEWVSVIYSGGITHYIGSVKGRFTISRHNSKNTLYLQMNSLRAEDTAMYYCARERYSGITGNPYGFDFWGQGTMVTVSS
VL: DIQLTQSPSFLSASVGDRVTITCWASQDISSYLAWYQQKPGIAPKLLIYSASTLQSGVPSSFSGSGSGTEFTLTISSLQPEDFATYYCQQLNIYPFTFGPGTKVDIK
B2: H4H25602P (antibody, V domains shown)
VH: B1 VH with I60V, G61D, F112I
VL: B1 VL with S50A, S61R
B3: H4H25617P (antibody, V domains shown)
VH: EVQLVESGGGLVQPGGSLRLSCSASGFTFTTYAMSWVRQAPGRGLEWVSSISGTGVSTYYADSVKGRFTISRDNSKNALYLQMNSLTAEDTAVYYCAKDSGTYHWGQGTLVTVSS
VL: EIVLTQSPATLSLSPGERATLSCRASQSVDSYLAWYQQKPGQAPRLLIYDASNRATGIPARFSGSGSGTDFTLTISSLESEDFAVYYCQQRRNWPQFTFGGGTKVEIK
B4: H4H25619P (antibody, V domains shown)
VH: QVQLVESGGGVVQPGRSLRLSCTASGFTFSTYGMHWVRHVPGKGLEWVAIVWYDGSDKSYAASVKGRFTISRDNSKNTLFLQMNSLRAEDTAVYYCARQGTYYYYGMDVWGQGTTVTVSS
VL: DIQMTQSPSSLSASVGDRVTITCRSSQTITNYLNWYQQRPGKAPKLLIYAASSLQSGVPSRFSGSGSGTDFTLTISSLQPEDFATYYCQQSYSTPPITFGQGTKLEIKR
B5: H4H25622P (antibody, V domains shown)
VH: QVQLVESGGGVVQPGRSLRLSCAASGFTFSSYGMHWVRQAPGKGLEWLAIIWYDGTNKQYVDSVKGRFTISRDNSKNTLYLQLNSLRAEDTAVYYCARQDFYYYYGMDVWGQGTTVTVSS
VL: not shown
B6: H4H25566P (antibody, V domains shown)
VH: QVQLQESGPGLVKPSQTLSLTCTVSGGSISSGGYYWSWIRQHPGKGLEWIGYIYYSGSTYYNPSLKSRITISIDTSKNQFSLKLTSVTAADTAVYYCARGQQLLSFDYWGQGTLVTVSS
VL: DIQMTQSPSSVSASVGDRVTITCRASQGISRWLAWYQLKPGKPPTPLIYAASSLQSGAPSRFSGRGSGTDFTLTISSLQPEDFATYYCQQANSFPYTFGQGTKLEIK
B7: H4H25626P (antibody, V domains shown)
VH: QVQLVESGGGVVQPGRSLRLSCAASGFTFSSYGMHWVRQAPGKGLEWVALIWYDGSDKHYVDSMKGRFTISRDNSKNTLYLQMNSLRADDTAVYYCARQAYYFYYGMDVWGQGTTVTVSS
VL: not shown
B8: H4H25630P (antibody, V domains shown)
VH: QVQLVQSGAEVKRPGASVKVSCKASDYTFTDYGISWVRQAPGQGLEWMGWFNTYNGNTNYAQKFQGRITMTTDTSTSTAYMELRSLRSDDTAIYYCARDWGLHYFENWGQGTLVTVSS
VL: EIVLTQSPGTLSLSPGERATLSCRASQSVRNSYLAWYQQKPGQAPRLLIYGASSRDTGIPDRFSGSGSGTDFTLTISRLEPEDFAVYYCQQYGRSPWTFGQGTKVEIK
B9: H4H25633P (antibody, V domains shown)
VH: EVQLVESGGGLVQPGRSLRLSCAASGFTFDDYAIHWVRQAPGKGLEWVSGISWNSGYLGYADSVKGRFTISRDNAKNSLYLQMNSLRAEDTAFYYCAKDVAWGSVRHVFEIWGQGTMVTVSS
VL: EIVLTQSPGTLSLSPGERATLSCRASQTITGNQLAWYQQKPGQAPRLLIYFTSSRATGIPDRFSGSGSGTDFSLTISRLEPEDFAVYFCQQFGYSPWTFGQGTKVEIK
B10: H4H25637P (antibody, V domains shown)
VH: QLQLQESGPGLVKPSETLSLTCTVSGDSISSSNYFWGWIRQPPGKGLEWIGNIYYSGDTYYNPSLKSRVTMSVDTSKKQFSLKLRSVTAADTAVYYCARGRPYYDFWSGYFDYWGQGTLVTVSS
VL: B8 VL with S22P, R30S, N31S, D56A, S64R, R94T, S95A
B11: H4H25640P (antibody, V domains shown)
VH: QVQLVESGGGVVQPGRSLRLSCAASGFTFSYYGMHWVRQAPGKGLEWVAVILYDGSNKFYSDSVKGRFTISRDNSRNTLYLQMNSLRLEDTAVYYCAKDYGGRFDYWGQGTLVTVSS
VL: EIVLTQSPGTLSLSSGERATLSCRASQSVSNKYLAWYQQKPGQVPRLLIYGASNRATGIPDRFSGSGSGTDFTLTINRLEPEDFAVFYCQQYGSTPSTFGQGTKVEIK
B12: H4H25703N (antibody, V domains shown)
VH: QVQLVESGGGVVQPGRSLRLSCAASGFTFNYYGMHWVRQAPGKGLEWVAVISYDGTNKYYADSVKGRFTTSRDNSKNTLYLQMNSLRAEDTALYYCARDRGGRFDYWGQGIQVTVSS
VL: EIVLTQSPDTLSLSPGERATLSCRASQSVSSNYLAWYQQKPGQAPRLLIYGASSRATGIPDRFSGSGSGTDFTLTISRLEPEDFAVYYCQRYGTSPLTFGGGTKVEIKR
B13: H4H25708N (antibody, V domains shown)
VH: EVQLLESGGDLVQPGGSLRLSCAASGFTFSSYAMSWVRQAPGKGLEWVSAISVSGDSTYYADSVKGRFTISRDNSKNTLYLQMNSLRAEDTAVYYCAKDRGYTWNYYYYGMDVWGQGTTVTVSS
VL: not shown
B14: H4H25704N (antibody, V domains shown)
VH: QVQLVESGGGVVQSGRSLRLSCAASGFTFIYYGMHWVRQAPGKGLEWVAVISYDGSDRYYADSVKGRFTISRDDSKNTLYLQMNSLRPEDTAVYYCAKDRGGRFDYWGQGTLVTVSS
VL: B8 VL with R30N, S32N, D56A, S64G, S66G, Q91R, R94N, W97L, Q101G
B15: H4H25587P (antibody, V domains shown)
VH: EVQLVESGGGLVQPGRSLTLSCAASGFTFDDYVMHWVRQAPGKGLEWVSGISWNSDTIDYADSVKGRFTISRDNAKNSLYLQMNSLRAEDTALYYCAKDRRSWYGGYFDYWGQGTLVTVSS
VL: DIQMTQSPSSLSASVGDRVTITCRASQGISSYLAWYQQKPGKVPKLLIYAASTLQSGVPSRFSGSGSGTDFSLTISSLQPEDVATYYCQKYNSAPLTFGGGTKVEIK
B16: H4H25710N (antibody, V domains shown)
VH: EVQLLESGGGLVQPGGSLRLSCAASGFTVSNNYMSWVRQAPGKGLEWVSVIYSGGRTNYGDSVKGRFTISRDNSKNTLYLQMNSLRAEDTAVYYCARENYDFWSGDPYGWDVWGQGTTVTVSS
VL: DIQMTQSPSSLSASVGDRVTITCRASQDISNYLAWFQQKPGKAPKSLIYGASSLQRGVPSKFRGSGSGTDFTLTISSLQPEDFASYYCQQYNSYPYTFGQGTKLEIK
B17: H2aM25709N (antibody, V domains shown)
VH: B16 VH with L5V, N31S
VL: B16 VL with R63S, S85T
B18: H2aM25711N (antibody, V domains shown)
VH: B16 VH with L5V, N31S
VL: B16 VL with R63S, S85T
B19: H2aM25710N (antibody, V domains shown)
VH: B16 VH
VL: B16 VL
B20: H4H25591P (antibody, V domains shown)
VH: B14 VH with S14P, I30S, Y32S, S56I, D57N, R58K, D74N, Y106P
VL: B15 VL with S31N, K45N, A50G, Q55H, S72T, E81A
B21: H4H25592P (antibody, V domains shown)
VH: B11 VH with Y32S, L52S, F59Y, S61A, R76N, T78I, L88A, Y100W, Y106P
VL: B15 VL with K39I, Q55H, S72T, E81A

What follows are binders tested against T1, ZIKV prM/E polyprotein on virus-like particles (VLPs) from HEK293T/17 cells (Zika virus, UniProt A0A024B7W1 123-795) (assay: MSD ECL, VLPs on plate).
T1 construct: also called ZIKV prM/E VLPs; Zika prM/E VLPs

Compared with B1, B2 is lower in “Ratio of RLU Zika VLP/VSV G VLP at 11.1 nM” value: 7 for the first, 5 for the second.

Going from B3 to B4, the “Ratio of RLU Zika VLP/VSV G VLP at 11.1 nM” value falls from 8 to 7.

First: B5
Second: B6
The “Ratio of RLU Zika VLP/VSV G VLP at 11.1 nM” value of the first is higher: 7 for the first, 6 for the second.

Compared with B7, B8 is lower in “Ratio of RLU Zika VLP/VSV G VLP at 11.1 nM” value: 10 for the first, 9 for the second.

B9 and B10 are the same in “Ratio of RLU Zika VLP/VSV G VLP at 11.1 nM” value: 9 for the first, 9 for the second.

Going from B11 to B12, the “Ratio of RLU Zika VLP/VSV G VLP at 11.1 nM” value rises from 2 to 8.

B13 and B14 are the same in “Ratio of RLU Zika VLP/VSV G VLP at 11.1 nM” value: 4 for the first, 4 for the second.

Compared with B15, B16 is lower in “Ratio of RLU Zika VLP/VSV G VLP at 11.1 nM” value: 14 for the first, 13 for the second.

Compared with B17, B18 is higher in “Ratio of RLU Zika VLP/VSV G VLP at 11.1 nM” value: 244 for the first, 263 for the second.

First: B19
Second: B20
The “Ratio of RLU Zika VLP/VSV G VLP at 11.1 nM” value of the first is higher: 107 for the first, 3 for the second.

With B21 the “Ratio of RLU Zika VLP/VSV G VLP at 11.1 nM” value was 7.
